Results published in publication PMC11335895.
Construct, isoform or probe ends are uncertain for at least one entry.

Biological target: H-NS (Acinetobacter baumannii AB5075) (UniProt V5VHH2)
Assay: EMSA
Conditions: EMSA: 40 mM Tris-acetate pH 7.9, 10 mM MgCl2, 100 mM KCl, 37 C 10 min, 5% polyacrylamide gel, recombinant protein, probe letters rebuilt from the primers and the genome

AGGGTATCTATATCAGCCAAAATAGCCAGATATTTTGGATACTGGTGGGTAGTATTAATTTCTTTGAAAAAATTGGTAATTCATATGAGCTATTAAAGTTAAGAACTACAATTTTTGAGAAAATAAAATTTAGGTTGAATAAACTTCTCTTGGTCTGAGCCATTACAAGAACCAAAAATAATTACTTGTAATTTTTATCTAAAGCCATGTTTAAGCAAAAAATATAGAAAAGTTATGGTTATGTAGGGAAAGCATGTTTTTTAGTGCTAAGGAAGCATTAAATTAATTTTAAAAAAATATGATAGGTAGACAGATTAGTCTTGACAATTTTATGGACTTTATGTAGAGCCTGTCTTTTTGTAAAGTGGGCTGAATCGATACTAATCAAATAGGATTAACTTAGATGCTATTTATGATTAAATATTCTTAAGAAAATGTTTCATAATGCCTAATCTCATGATATTTAAATCAATTTTTAATTTAGTTTAATTTTTAAATAAACCAATAAAAATCAATCATTTATTTTTATTTACAAAAATTAACAATATTATTTTTTTATAAGAAAAACTTTATTAAGCTATATTTTATAGGCATCTTAACTATTGGCTTTTAGTTTAAGTTAATATGTTTTTTATATAAAATATGTTTATTTATATGTTAAACTGCGACTAAATTTTTTGAATATAAGGTTTTTATACTGATTTTTTAATATTCTAAAAATATTAACTTTTCGGTAAAGCCTTGAATAAATAAGAAAACAGAGGAATGAAAGTTGTGTTG (double strand) [T6SS regulatory DNA (prey)]
binding result (6 uM H-NS with 1-10 uM H-NS-39, no impact on DNA binding): binds | binding result (6 uM H-NS, herring sperm DNA competitor): binds
